PubChem BioAssay AID624099 – ICCB-Longwood – 2012

Test: 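Knock-downs relieving repression by E2 of an HPV18 LCR luciferase reporter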 (primary screen)
Cell system: human C33A cervical carcinoma cells (HPV-negative) stably expressing BPV1 E2 and an HPV18 LCR luciferase reporter
Knock-down reagent: siRNA pool against human genes, 40 nM
Duration: 72 h
Measured: 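Per-well luciferase luminescence, z-scored on each plate against the plate mean and SD with control wells left out, then averaged across three replicate plates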
Direction: mean z-score and z-score: higher = stronger reporter signal, weaker E2 silencing
Active means: 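Hit if mean z-score reaches 2 and two or more of three replicate z-scores also reach 2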
This is one part, drawn at random, of about 21,000 reagents tested. Of all reagents, 497 (2.4%) got an active call. 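Higher z means weaker E2 silencing; only reporter increases were scored, and knock-downs that hurt cell survival may mask genuine repressor factors.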

| gene symbol | mean z-score | z-score, replicate A | z-score, replicate B | z-score, replicate C | outcome |
| --- | --- | --- | --- | --- | --- |
| LOC388681 (retired record) | -0.26 | -0.46 | -0.32 | 0 | inactive |
| GLIPR1 (GLI pathogenesis related 1) | 0.93 | 0.91 | 0.79 | 1.09 | inactive |
| MAPK8IP1 (mitogen-activated protein kinase 8 interacting protein 1) | 0.5 | 0.46 | 0.56 | 0.49 | inactive |
| CLEC18A (C-type lectin domain family 18 member A) | 1.12 | 1 | 1.19 | 1.18 | inactive |
| LOC390217 (retired record) | -0.81 | -0.7 | -0.55 | -1.17 | inactive |
| NKX6-1 (NK6 homeobox 1) | 0.91 | 0.88 | 0.9 | 0.95 | inactive |
| ASB4 (ankyrin repeat and SOCS box containing 4) | 0.19 | 0.26 | 0.35 | -0.02 | inactive |
| VPS72 (vacuolar protein sorting 72 homolog) | -0.03 | 0.07 | -0.2 | 0.03 | inactive |
| SH3BGRL3 (SH3 domain binding glutamate rich protein like 3) | -1.08 | -0.95 | -1.13 | -1.17 | inactive |
| PVALEF (parvalbumin like EF-hand containing) | 0.15 | 0.06 | 0.16 | 0.23 | inactive |
| RPS3A (ribosomal protein S3A) | -1.52 | -1.38 | -1.69 | -1.49 | inactive |
| GGT1 (gamma-glutamyltransferase 1) | -1.09 | -0.62 | -1.15 | -1.49 | inactive |
| C1QTNF9B (C1q and TNF related 9B) | 0.36 | 0.31 | 0.64 | 0.13 | inactive |
| PODXL (podocalyxin like) | 0.35 | 0.43 | 0.26 | 0.35 | inactive |
| LOC164036 (retired record) | -0.4 | -0.73 | -0.57 | 0.1 | inactive |
| PDE4DIP (phosphodiesterase 4D interacting protein) | 0.22 | -0.07 | 0.37 | 0.35 | inactive |
| PBX3 (PBX homeobox 3) | 0.68 | 0.62 | 0.81 | 0.63 | inactive |
| SOCS4 (suppressor of cytokine signaling 4) | -0.68 | -1.01 | -0.54 | -0.5 | inactive |
| LOC440895 (two pore channel 3 pseudogene) | -0.13 | -0.23 | -0.09 | -0.08 | inactive |
| PFKFB2 (6-phosphofructo-2-kinase/fructose-2,6-biphosphatase 2) | 0.27 | 0.5 | 0.23 | 0.09 | inactive |
| PDGFB (platelet derived growth factor subunit B) | -0.63 | -0.71 | -0.56 | -0.64 | inactive |
| TBC1D8 (TBC1 domain family member 8) | 1.53 | 1.3 | 1.57 | 1.72 | inactive |
| PLSCR3 (phospholipid scramblase 3) | 0.06 | -0.04 | 0.16 | 0.06 | inactive |
| HTR3A (5-hydroxytryptamine receptor 3A) | -0.06 | 0 | 0.06 | -0.23 | inactive |
| HLA-G (major histocompatibility complex, class I, G) | 2.6 | 2.58 | 2.58 | 2.65 | active |
| TTC33 (tetratricopeptide repeat domain 33) | 1.87 | 1.74 | 1.8 | 2.08 | inactive |
| DHRS7C (dehydrogenase/reductase 7C) | 0.15 | 0.25 | -0.22 | 0.41 | inactive |
| KCNJ15 (potassium inwardly rectifying channel subfamily J member 15) | -0.16 | -0.13 | -0.28 | -0.06 | inactive |
| SLC9A2 | 0.31 | 0.5 | 0.39 | 0.04 | inactive |
| GAPDHS (glyceraldehyde-3-phosphate dehydrogenase, spermatogenic) | 1.11 | 1.09 | 1.06 | 1.17 | inactive |
| PPIB (peptidylprolyl isomerase B) | 2.07 | 2.1 | 2.21 | 1.91 | active |
| DENND1A (DENN domain containing 1A) | 0.34 | 0.64 | 0.31 | 0.07 | inactive |
| SEMA3C (semaphorin 3C) | -0.6 | -0.63 | -0.43 | -0.75 | inactive |
| PLPP5 (phospholipid phosphatase 5) | -0.07 | -0.35 | -0.01 | 0.14 | inactive |
| CCDC9B (coiled-coil domain containing 9B) | -0.99 | -0.49 | -1.12 | -1.35 | inactive |
| STAT3 (signal transducer and activator of transcription 3) | -0.75 | -0.69 | -0.93 | -0.64 | inactive |
| TCEA1P3 (transcription elongation factor A1 pseudogene 3) | -0.57 | -0.73 | -0.68 | -0.31 | inactive |
| LOC388305 (retired record) | 0.09 | -0.14 | 0.15 | 0.26 | inactive |
| CAMKK2 (calcium/calmodulin dependent protein kinase kinase 2) | 0.12 | -0.14 | 0.67 | -0.16 | inactive |
| RPL19P10 (ribosomal protein L19 pseudogene 10) | 0.81 | 0.68 | 0.95 | 0.79 | inactive |
| HOXC4 (homeobox C4) | 0.57 | 0.72 | 0.67 | 0.34 | inactive |
| CNOT2 (CCR4-NOT transcription complex subunit 2) | 1.7 | 1.78 | 1.53 | 1.79 | inactive |
| NRF1 (nuclear respiratory factor 1) | 1.15 | 1.23 | 1.22 | 1.02 | inactive |
| OR4X2 (olfactory receptor family 4 subfamily X member 2) | 0.06 | 0.08 | 0.05 | 0.06 | inactive |
| SLC38A1 | 0.64 | 0.76 | 0.31 | 0.85 | inactive |
| SIRPD (signal regulatory protein delta) | 0.07 | 0.03 | 0 | 0.16 | inactive |
| SNCAIP (synuclein alpha interacting protein) | -1.46 | -1.76 | -1.41 | -1.23 | inactive |
| ZNHIT3 (zinc finger HIT-type containing 3) | -0.49 | -0.48 | -0.54 | -0.46 | inactive |
| FAAP24 (FA core complex associated protein 24) | 0.55 | 0.74 | 0.18 | 0.72 | inactive |
| NLRP12 (NLR family pyrin domain containing 12) | -0.64 | -0.93 | -0.33 | -0.65 | inactive |
| ZNF287 (zinc finger protein 287) | 0.07 | 0.55 | 0.25 | -0.59 | inactive |
| DDX3Y (DEAD-box helicase 3 Y-linked) | -0.31 | -0.42 | -0.38 | -0.14 | inactive |
| LINC00494 (long independently transcribed non-coding RNA 494) | 0.41 | 0.32 | 0.48 | 0.42 | inactive |
| MT1DP (metallothionein 1D, pseudogene) | 0.19 | -0.08 | 0.42 | 0.23 | inactive |
| FANCF (FA complementation group F) | 1.12 | 1.11 | 1.31 | 0.92 | inactive |
| LOC387826 (retired record) | -0.36 | -0.1 | -0.45 | -0.53 | inactive |
| UBE2H (ubiquitin conjugating enzyme E2 H) | 1.04 | 1.22 | 0.69 | 1.21 | inactive |

Targets above whose gene name begins with R or r (2):
| gene symbol | mean z-score | z-score, replicate A | z-score, replicate B | z-score, replicate C | outcome |
| --- | --- | --- | --- | --- | --- |
| RPS3A (ribosomal protein S3A) | -1.52 | -1.38 | -1.69 | -1.49 | inactive |
| RPL19P10 (ribosomal protein L19 pseudogene 10) | 0.81 | 0.68 | 0.95 | 0.79 | inactive |
